Measurements taken from publication PMC4959772.
Construct, isoform or probe ends are uncertain for at least one entry. For part of these data: Weaker means in comparison with the reference protein, sequence or condition of that experiment. At least one verdict was read from the data and is not stated in words by the source.

What was measured:
[1] = system: MBP-GlnR (Streptococcus mutans GS5); experiment: EMSA; settings: EMSA: 20 mM Tris pH 8.0, 5 mM MgCl2, 100 mM KCl, 2 mM DTT, 1 ug BSA, 0.5 ug salmon sperm DNA, 0.025 pmol probe in 20 ul, 4 C, 30 min, 6% polyacrylamide gel, recombinant protein, protein details: N-terminal MBP, label: 3' biotin
[2] = system: MBP-PmrA (Streptococcus mutans GS5); experiment: EMSA; settings: 8-512 nM protein, EMSA: 20 mM Tris pH 8.0, 5 mM MgCl2, 100 mM KCl, 2 mM DTT, 1 ug BSA, 0.5 ug salmon sperm DNA, 0.025 pmol probe in 20 ul, 4 C, 30 min, 6% polyacrylamide gel, recombinant protein, protein details: N-terminal MBP, label: 3' biotin

Sequence | binding result ([1]; 8-256 nM protein) | binding result ([2]; more protein needed than GlnR) | further results
CTATTTTTATGTTATAAAACATAACATAAAATGCAAGCTT (double strand) [pcitB] | binds | binds | –
CTTTTTTGTTATATGTTATGTTTTTTAACATTTCTATCTA (double strand) [pnrgA-2] | – | – | binding result ([1]; 8-256 nM protein, nrgA-1 is the major target): binds more weakly
GTATAACAATATAATGTTAGAAAAGCTAACAATAAATTTA (double strand) [pglnQ] | binds | binds | –
GTTTAGAGTTTATGTCAGGAAATATGACATATAGGCTTGA (double strand) [pglnR] | binds | binds | –
TAAACATTTTATGTAGAAAAACTACATTTATTGTAATATA (double strand) [ppmrA] | – | – | binding result ([1]; 16-512 nM protein): binds; binding result [2]: binds
TACCTCCCTTTATGTTATATAATATAACATTATTCCTAAA (double strand) [pnrgA-1] | – | – | binding result ([1]; 8-256 nM protein, major nrgA target): binds; binding result ([2]; major nrgA target): binds
TATAGACTGTTATGTAAGGAAATATAACATCTATTATTAA (double strand) [pglnP] | binds | binds | –
TTAATCTAATGAATGTTATTTTTTATAACATGAAAGAATA (double strand) [pgdhA] | binds | binds | –
